Reference: patent publication US11045520B2, “Compositions and methods for topical delivery of pharmaceutical agents” (priority 2016, dated 2021)

System: human skin explants or xenograted human skin
Assay: Confocal imaging of fluorescent dye distribution in ETA-desquamated skin (Example 2)
Details: toxin treated skin
Method: Human skin samples were fixed in 10% formaldehyde overnight and then embedded in paraffin. Samples were cut using a microtome to a thickness of 6 μM and baked on slides for 1 hour in a dry heat incubator at 58° C. Nuclei and eosinophillic structures were visualized by hematoxylin and eosin staining, respectively. The hematoxylin stains nuclei blue and eosins stains eosinophillic structures different shades of red. Histological images were taken with an inverted microscope.
The skin was either subjected to no treatment or application of ETA at 100 μg/mL.
To image the distribution of each dye in the human skin, human skin specimens were collected at 6, 12, 18 and 24 hours. Ordinary skin with intact S.C. and desquamated skin using ETA (methods previously described) were used. Frozen sections of human skin specimens were cut using a microtome to a thickness of 7 μM and DAPI was used for counter staining. Skin imaging was carried out at room temperature using Nikon confocal microscope equipped with NIS-Elements AR 3.10 software.

Dextran
penetration of the dye at 24 hours: deep penetration of the dye
